This data set has as its system O=P(O)(O)O[C@@H]1[C@H](O)[C@H](O)[C@@H](OP(=O)(O)O)[C@H](OP(=O)(O)O)[C@H]1O. The experiment in a line: purified protein. The settings on record: 200 µM ATP, 2 mM MgCl2, 20 mM HEPES, 150 mM NaCl, pH 7.5, 37°C.

One may read the Vmax as the top rate of the reaction or transport when substrate is in excess. A word on the kcat/Km: it is the second-order rate constant that governs catalysis at low substrate concentration. With “T. brucei IPMK (rIPMK, rTbIPMK) (Trypanosoma brucei brucei TREU927; D142A)”, the Km was 113.0 (±31.93) µM, the Vmax turned out to be 660 µmol/min/mg and the specificity constant (kcat/Km) turned out to be 97300 M⁻¹ s⁻¹.
Regarding “T. brucei IPMK (rIPMK, rTbIPMK) (Trypanosoma brucei brucei TREU927; K164W)”, the Km was 51.04 (±13.84) µM, the maximal velocity (Vmax) came to 630 µmol/min/mg and the kcat/Km was found to be 206000 M⁻¹ s⁻¹.

For the origin of these results see paper PMC5921579.
